Patent US10125116B2, “Compounds and methods for treating mammalian gastrointestinal microbial infections” (Brandeis University, priority 2009, dated 2018)
Where two headings read alike, the source gives them in different places.

Protein sequences, listed by entry. Tags and fused reporters are not part of them.
UniProt Q8T6T2, whole entry: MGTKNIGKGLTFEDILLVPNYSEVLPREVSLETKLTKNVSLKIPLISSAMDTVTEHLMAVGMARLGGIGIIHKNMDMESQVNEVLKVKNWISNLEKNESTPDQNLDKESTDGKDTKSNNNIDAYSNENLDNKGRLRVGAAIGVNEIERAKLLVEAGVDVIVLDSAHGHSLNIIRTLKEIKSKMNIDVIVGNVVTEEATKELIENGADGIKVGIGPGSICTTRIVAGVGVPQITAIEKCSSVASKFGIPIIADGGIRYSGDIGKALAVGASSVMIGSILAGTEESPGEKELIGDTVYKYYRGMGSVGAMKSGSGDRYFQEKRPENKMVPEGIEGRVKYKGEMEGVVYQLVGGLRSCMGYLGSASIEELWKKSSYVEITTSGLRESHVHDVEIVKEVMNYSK
UniProt P56088, whole entry: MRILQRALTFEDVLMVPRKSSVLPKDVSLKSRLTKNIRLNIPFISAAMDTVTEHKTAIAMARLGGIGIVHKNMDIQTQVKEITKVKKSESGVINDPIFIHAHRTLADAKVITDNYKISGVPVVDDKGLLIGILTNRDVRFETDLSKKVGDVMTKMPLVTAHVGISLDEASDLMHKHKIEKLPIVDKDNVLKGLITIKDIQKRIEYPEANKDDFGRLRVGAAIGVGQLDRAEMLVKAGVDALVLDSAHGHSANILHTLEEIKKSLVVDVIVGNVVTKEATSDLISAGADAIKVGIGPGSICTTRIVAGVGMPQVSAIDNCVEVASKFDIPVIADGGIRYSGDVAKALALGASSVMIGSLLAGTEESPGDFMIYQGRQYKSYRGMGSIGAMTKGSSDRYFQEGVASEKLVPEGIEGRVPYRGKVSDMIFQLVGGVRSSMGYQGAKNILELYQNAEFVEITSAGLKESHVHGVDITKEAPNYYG
UniProt P0C0H6, whole entry: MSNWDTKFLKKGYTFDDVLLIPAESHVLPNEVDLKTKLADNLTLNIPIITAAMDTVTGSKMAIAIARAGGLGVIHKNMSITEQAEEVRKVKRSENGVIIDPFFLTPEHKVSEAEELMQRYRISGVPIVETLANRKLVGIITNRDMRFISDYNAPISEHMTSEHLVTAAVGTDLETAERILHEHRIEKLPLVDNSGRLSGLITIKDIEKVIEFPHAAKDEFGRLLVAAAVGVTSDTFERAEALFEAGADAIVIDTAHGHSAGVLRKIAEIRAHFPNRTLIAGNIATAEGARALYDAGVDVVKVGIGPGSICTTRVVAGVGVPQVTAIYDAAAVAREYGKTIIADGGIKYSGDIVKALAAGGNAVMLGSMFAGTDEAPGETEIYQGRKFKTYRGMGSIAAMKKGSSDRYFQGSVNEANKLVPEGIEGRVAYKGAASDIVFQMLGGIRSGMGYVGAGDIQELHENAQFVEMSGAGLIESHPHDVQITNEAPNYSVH

Tests used:
[1] = target: T1, recombinant C. parvum IMPDH (Cryptosporidium parvum, UniProt Q8T6T2); assay: C. parvum IMPDH inhibition (NADH production); type: biochemical; details: for IC50: read-out: IC50 CpIMPDH
Experimental: Recombinant C. parvum IMPDH was expressed in bacteria and purified as described previously [N. N. Umejiego et al., J Biol Chem 279, 40320-40327 (2004)].
Inhibitors at varying concentrations (25 pM-5 μM) were incubated with 10 nM C. parvum in assay buffer for 10 min at room temperature. The reaction was initiated by the addition of NAD and IMP for final concentrations of 300 μM and 150 μM, respectively. Selectivity was measured against human type II and T. foetus IMPDH at 25° C. in assay buffer. The former was assayed in the presence of 300 μM NAD 40 μM IMP and 160 nM human type II IMPDH, and the latter in the presence of 300 μM NAD 20 μM IMP and 28 nM T. foetus IMPDH. The production of NADH was monitored spectrophotometrically at 340 nm (=6.22 mM^−1 cm^−1) using a Hitachi U-2000 spectrophotometer.
IC50 values were calculated for each inhibitor according to the following equation: υi=υo/(1+[I]/IC50), using the SigmaPlot program (SPSS, Inc.).
The CpIMPDH inhibitory activity of the compounds was assessed by monitoring the production of NADH by fluorescence (FIG. 55). Replacing the p-MeO of the parent compound C with Cl or Br increased potency by 10-fold (C10, aka 126) and 20-fold (C14, aka 130), respectively, as has been similarly observed with another inhibitor series. To fill the cavity observed in the crystal structure, the para-substituted aniline group was replaced with 3,4-dichloroaniline (C86) or 2-naphthylamine (C90); the addition of a second Cl improved potency by a factor of 2, while fusing an additional aromatic ring increased potency by a factor of 8. Similar trends were observed when the thiazole ring was attached at the 2-position (C61 aka 171, C64 aka 174, C84 and C90). […] The best CpIMPDH inhibitor, C90, has an IC50=7.4 nM with selectivity >10^3 for the parasite enzyme.
Evaluation of Cp-IMPDH inhibitory activity for the various prepared compounds was conducted utilizing an assay measuring the conversion of IMP to XMP by monitoring the production of NADH by fluorescence emission in the presence of varying inhibitor concentrations. […] On the contrary, ortho and meta substitutions were devoid of inhibition activity.

[2] = target: T1, recombinant C. parvum IMPDH; details: read-out: IC50 CpIMPDH (reference [13]); cited from earlier work
H. pylori strain G27 = assay: H. pylori growth assay (colony forming units); type: cell-based, Helicobacter pylori
HpIMPDH = HpIMPDH (Helicobacter pylori, UniProt P56088); assay: H. pylori IMPDH inhibition; type: biochemical; details: read-out: IC50 HpIMPDH
SpIMPDH = SpIMPDH (Streptococcus pyogenes, UniProt P0C0H6); assay: S. pyogenes IMPDH inhibition; type: biochemical
[3] = system: CpIMPDH, HpIMPDH, BbIMPDH and S250A/L444Y; assay: intrinsic IC50 (adjusted for competition with the mobile flap); details: read-out: intrinsic IC50, range over CpIMPDH, HpIMPDH, BbIMPDH and S250A/L444Y

## O=C(Cn1c(-c2cccs2)nc2ccccc21)Nc1ccc(Cl)cc1
[1]
  drop in CpIMPDH IC50 compared to C61: about 10 nM
  IC50: 20 nM

## O=C(Cn1c(-c2ccccn2)nc2ccccc21)Nc1ccc2ccccc2c1
[2]
  IC50: 8 nM
H. pylori strain G27; culture exiting stationary phase
  concentration sufficient to block proliferation of H. pylori: 20 µM
H. pylori strain G27; exponentially growing cells
  concentration sufficient to block growth of H. pylori: 60 µM
[1]
  IC50: 2 nM
HpIMPDH
  IC50: 25 nM

## Nc1ccc(C(=O)OCCCc2nc3cc4ccccc4cc3[nH]2)cc1
SpIMPDH
  IC50 SpIMPDH: submicromolar inhibitors

## COc1ccc(NC(=O)Cn2c(-c3cscn3)nc3ccccc32)cc1
[3]
  IC50: 180 to 360 nM

## Nc1ccc(C(=O)OCc2nc3cc4ccccc4cc3[nH]2)cc1
SpIMPDH
  IC50 SpIMPDH: submicromolar inhibitors

## O=C(Cn1c(-c2cscn2)nc2ccccc21)Nc1ccc2ccccc2c1
[1]
  CpIMPDH inhibition, result in words: most potent inhibitors
  selectivity for the parasite enzyme (CpIMPDH) over human IMPDH2: > 1000
  IC50: 7 nM
[1]; para-substituted aniline replaced with 3,4-dichloroaniline or 2-naphthylamine
  improvement of CpIMPDH potency by a factor, relative to para-substituted aniline analog: 8
